SMILES strings stand for the structures.

This data set is described as follows: in vitro. To be noted: dog.

As to `COc1cc(NC(C)CCCN)c2ncccc2c1` (stereo not shown) [Primaquine, primaquine diphosphate], the CC50 came out at 126 ± 80.5 µM.

The values are drawn from publication PMC4204995, “Inhibition of Influenza Virus Replication by Targeting Broad Host Cell Pathways” (PLoS ONE, 2014).
